US20230365956A1 (SYSTIMMUNE, published 2023)

Key:
[1] = target: T1, SARS-CoV-1 RBD domain (ACROBiosystems) (SARS-CoV-1); assay: BLI, affinity format: SI-F019 on AHC tip, viral protein in solution
T1 construct: domain: RBD domain; also called CoV RBD

[2] = target: T1, SARS-CoV-1 RBD domain (ACROBiosystems); assay: BLI, avidity format: biotinylated viral protein on SA tip, SI-F019 in solution

B1: SI-F019, fusion protein of huACE2 ([…]) and IgG1 Fc null (purified from SI-69R2) (Fc fusion)
chain: not shown
- Kd [1]: 14 nM
- koff [1]: 0.00597 s⁻¹
- Kd [2]: 0.33 nM
- koff [2]: 0.000171 s⁻¹
